A mixed list of measured activities; the numbers were collected in NIAID ChemDB.

Shared fields: target-level tests; organism: Pneumocystis carinii; target: DHFR; measure: IC50

ICn: concentration for n% inhibition. Conditions beyond the fields shown may differ between rows.

structure,value
Nc1nc(N)c2nc(CCc3ccnc4ccccc34)cnc2n1,4.9 µM
Nc1nc(N)c2nc(CC3CCCCC3)c(CC3CCCCC3)nc2n1,2.6 µM
Cl.Nc1nc(N)c2nc(CCc3ccncc3)cnc2n1,35.5 µM
COc1cc(-c2coc3nc(N)[nH]c(=O)c23)cc(OC)c1OC,>300 µM
Nc1nc(N)c2nc(CCc3cccs3)cnc2n1,12.9 µM
Nc1nc2occ(-c3ccccc3)c2c(=O)[nH]1,32 µM
COc1ccc(NCc2cnc3nc(N)nc(N)c3c2C)c(C)c1,0.176 µM
COc1cc(N2C(N)=NC(N)=NC2(C)C)cc(OC)c1OC,>100 µM
CC(C)c1nc2nc(N)nc(N)c2nc1C(C)C,0.2 µM
Nc1nc(N)c2nc(CCc3ccc4ccccc4n3)cnc2n1,0.86 µM
Cc1nc2nc(N)nc(N)c2c2c1CCCC2,1 µM
Nc1nc2occ(-c3ccc(O)cc3)c2c(=O)[nH]1,140 µM
COc1ccc(OC)c(N(C)Cc2cnc3nc(N)nc(N)c3c2C)c1,0.046 µM
COc1cc(C2COc3nc(N)nc(N)c32)cc(OC)c1OC,>300 µM
Nc1nc(N)c2cc(F)ccc2n1,119 µM
COc1cc(C2COc3nc(N)[nH]c(=O)c32)cc(OC)c1OC,60 µM
Nc1nc(N)c2c(Br)cccc2n1,0.28 µM
Nc1nc(N)c2nc(CCc3ccccc3)cnc2n1,8.4 µM
Nc1nc(N)c2nc(Cc3ccc(Cl)c(Cl)c3)c(Cc3ccc(Cl)c(Cl)c3)nc2n1,4.4 µM
COc1ccc(Cl)cc1C1c2c(nc(N)[nH]c2=O)OC1[N+](=O)[O-],20 µM
Nc1nc(N)c2c(OCC(F)(F)C(F)(F)F)cccc2n1,54 µM
CCCCCc1nc2nc(N)nc(N)c2nc1CCCCC,1.5 µM
Nc1nc(N)c2ccc(Cl)cc2n1,45 µM
COc1ccc(OC)c(N(C)Cc2csc3nc(N)nc(N)c23)c1,>10 µM

Again, the opening 2 rows:

structure,value
Nc1nc(N)c2nc(CCc3ccnc4ccccc34)cnc2n1,4.9 µM
Nc1nc(N)c2nc(CC3CCCCC3)c(CC3CCCCC3)nc2n1,2.6 µM